{"source": "paper PMC9435674", "about": "“Delineating the activity of the potent nicotinic acetylcholine receptor agonists (+)-anatoxin-a and (−)-hosieine-A” (2022)", "origin": "cited, not measured here", "key": {"Torpedo electric organ [1]": {"test_system": "Torpedo electric organ", "conditions": "patch-clamp electrophysiology; ref Swanson et al., 1986; cited from earlier work"}, "[2]": {"test_system": "muscle and neuronal nAChRs", "conditions": "agonist of muscle and neuronal nAChRs; ref Spivak et al., 1980; Koskinen & Rapoport, 1985; Rodgers et al., 2018; cited from earlier work"}, "[3]": {"test_system": "human α4β2 and rat α7 subtypes", "conditions": "range over human α4β2 and rat α7 subtypes; ref Gohlke et al., 2002; Mazurov et al., 2012; cited from earlier work"}, "Torpedo electric organ [4]": {"test_system": "Torpedo electric organ", "conditions": "radioligand competition assay, ref Swanson et al., 1986; cited from earlier work"}}, "note": "Read-outs that look alike come from different tables or passages of the source."}
{"smiles": "CC(=O)C1=CCCC2CCC1N2", "note": "(single isomer, unassigned)", "values": [{"measurement": "IC50", "setting": "Torpedo electric organ [1]", "result": 32, "unit": "nM"}, {"measurement": "potency of the (+)-enantiomer relative to the (−)-enantiomer", "setting": "[2]", "result": "around 150 times"}, {"measurement": "Ki", "setting": "[3]", "result": "1 to 90", "unit": "nM"}, {"measurement": "IC50", "setting": "Torpedo electric organ [4]", "result": 85, "unit": "nM"}]}
